# Sequence variants of PSTVd loop 27 after infection

Data from the supplement of Wu et al. 2024, doi:10.1371/journal.ppat.1012142.

Region: loop 27 of PSTVd (intermediate strain), 5' to 3', with the closing base pair. Wild type: UUUUCA. Varied positions (N): UNNNNA.

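Three N. benthamiana plants were inoculated with the whole mutant pool. Progeny were sequenced from the inoculated region (day 5), the margin of the inoculated leaf (day 10) and systemic leaves (day 12).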

Values are reads per thousand in the sample; higher means more abundant, 0 means not found.
Each site shows the three plants.
"Pool" is the share in the plasmid pool used as inoculum, on the same scale.
The inoculated region was read from the minus strand, the other sites from the plus strand.
IR is the inoculated region, LM the leaf margin, Sys the systemic leaves.
The authors trace changes outside the varied positions to PCR and sequencing errors or to mutation in the plant; presence does not show that a variant is infectious alone.
With 30,013-65,426 reads a sample, very low values are single reads.
Wild type was 39.4 per thousand in the pool and the most common sequence in every sample (inoculated region 155, 124, 130; leaf margin 823, 907, 920; systemic leaves 805, 787, 933).

| sequence | pool | IR | LM | Sys |
|---|---|---|---|---|
| UGCCUA | 2.13 | 0.617 0.998 0.832 | 0.0666 0.0605 0 | 0 0 0.0197 |
| UGCGAA | 1.75 | 1.69 1.69 1.47 | 0 0.0907 0 | 0.0161 0.0459 0.0197 |
| UGCGCA | 5.19 | 1.41 1.69 1.76 | 0 0.0907 0 | 0 0.0764 0.0393 |
| UGCGGA | 5.55 | 2.22 2.93 2.40 | 0.133 0.121 0.0775 | 0 0.0153 0.177 |
| UGCGGU | 0.0136 | 0 0 0 | 0 0 0 | 0 0 0 |
| UGCGUA | 4.03 | 1.38 1.69 1.32 | 0.366 0.121 0.0258 | 0.0322 0 0.0393 |
| UGCUAA | 3.14 | 1.87 1.93 2.29 | 0.0333 0.0605 0.0258 | 0.0161 0.0153 0.0197 |
| UGCUCA | 2.91 | 1.75 2.27 1.74 | 0.0333 0.514 0.620 | 0.0482 0.0153 0.0393 |
| UGCUCC | 0.394 | 0.0529 0.164 0.170 | 0 0 0 | 0 0 0 |
| UGCUGA | 2.05 | 2.36 2.32 2.53 | 0.0666 0.0302 0 | 0 0.0306 0.0393 |
| UGCUUA | 2.89 | 1.85 2.45 2.14 | 0.0333 0.181 0 | 0 0.0611 0.0590 |
| UGGAAA | 3.12 | 2.15 2.39 2.15 | 0.400 0.665 0.0258 | 0.0322 0.0306 0.157 |
| UGGAAC | 0.163 | 0.141 0.0818 0.151 | 0.366 0.0302 0 | 0 0 0.0197 |
| UGGACA | 2.11 | 0.882 0.835 0.643 | 0 0.0907 0.0517 | 0.0322 0.0153 0.0197 |
| UGGAGA | 7.17 | 2.80 2.86 2.91 | 0.333 0.726 0.568 | 0.113 0.138 0.138 |
| UGGAUA | 5.60 | 7.65 8.10 9.58 | 1.43 0.998 0.465 | 0.0643 0.0153 0.157 |
| UGGCAA | 3.23 | 1.32 1.65 1.46 | 0.0666 0.0302 0.698 | 0 0.0153 0.0590 |
| UGGCCA | 3.15 | 0.723 1.16 1.04 | 0.0333 0.0907 0.0775 | 0 0.0764 0 |
| UGGCGA | 3.06 | 0.864 1.33 1.06 | 0.0333 0.0907 0 | 0.0161 0.0153 0.0393 |
| UGGCUA | 5.12 | 2.50 3.35 3.14 | 0.0333 0.454 0.698 | 0.0161 0 0.0197 |
| UGGGAA | 5.66 | 2.01 2.18 1.74 | 0.466 0.333 0.258 | 0.0322 0.107 0 |
| UGGGAC | 0.0543 | 0 0 0.0378 | 0 0 0 | 0 0 0 |
| UGGGCA | 5.45 | 1.08 1.57 1.21 | 0.0333 0.181 0.0258 | 0.0161 0.107 0.0590 |
| UGGGGA | 7.59 | 2.77 2.72 2.10 | 0.167 0.212 0.284 | 0.0322 0.0153 0.0590 |
| UGGGGC | 0.584 | 0.0705 0.0982 0.113 | 0 0.0302 0.362 | 0.0161 0 0 |
| UGGGUA | 6.97 | 2.61 2.54 2.74 | 0.333 0.0907 0.0517 | 0 0.0459 0.118 |
| UGGUAA | 6.06 | 6.00 5.32 5.39 | 1.23 0.484 0.258 | 0.531 0.0917 0.0590 |
| UGGUCA | 3.72 | 1.48 1.87 2.02 | 0.233 0.272 1.24 | 0.0643 0.260 0.0984 |
| UGGUGA | 5.75 | 1.41 2.42 1.42 | 0.0666 0.181 0.543 | 0.0161 0.0306 0.216 |
| UGGUUA | 5.76 | 10.3 11.4 10.4 | 2.40 0.605 0.491 | 0.0643 0.245 0.374 |
| UGUAAA | 6.06 | 7.72 7.86 7.79 | 1.50 0.363 0.207 | 0.0482 0.168 0.216 |
| UGUACA | 0.842 | 1.38 1.98 1.44 | 0 0.0907 0.775 | 0.0482 0.0611 0.118 |
| UGUAGA | 4.86 | 12.8 12.6 13.1 | 4.30 0.574 0.0775 | 0.177 0.336 0.295 |
| UGUAUA | 5.12 | 8.64 7.23 7.18 | 2.70 0.454 0.0775 | 0.0643 0.183 0.197 |
| UGUCAA | 3.04 | 4.41 4.63 4.61 | 0.433 0.242 0.0258 | 0.0322 0.229 0.118 |
| UGUCCA | 1.05 | 0.758 0.425 0.548 | 0 0.0302 0 | 0 0 0 |
| UGUCGA | 2.78 | 3.83 3.11 4.01 | 0.500 0.242 0.336 | 0.0482 0 0.0984 |
| UGUCUA | 5.64 | 6.79 7.05 8.30 | 3.50 0.605 0.103 | 0.0965 0.0153 0.118 |
| UGUGAA | 6.08 | 5.57 5.55 5.39 | 0.233 0.574 0.517 | 0.0161 0.0917 0.0984 |
| UGUGCA | 3.23 | 0.829 1.16 1.00 | 0.0333 0.0605 0.0517 | 0.0322 0.214 0.0197 |
| UGUGGA | 6.66 | 3.76 4.40 4.56 | 0.666 0.302 0.413 | 0.129 0.0306 0.0984 |
| UGUGUA | 8.73 | 9.58 9.13 11.6 | 1.00 0.363 0.517 | 0.209 0.245 0.138 |
| UGUUAA | 6.13 | 6.74 6.42 7.58 | 0.833 0.635 0.439 | 0.113 0.382 0.531 |
| UGUUCA | 3.27 | 4.29 5.48 6.05 | 1.63 0.635 0.388 | 0.354 0.993 1.59 |
| UGUUGA | 4.85 | 5.03 5.94 5.86 | 1.47 0.423 0.129 | 0.0322 0.107 0.0984 |
| UGUUUA | 6.68 | 15.9 16.9 16.9 | 4.20 0.454 0.620 | 0.273 0.245 0.452 |
| UUAAAA | 3.83 | 1.38 1.41 1.30 | 0.566 0.333 0.310 | 0.0482 0.0611 0.0393 |
| UUAAAC | 0.340 | 0.0705 0.0327 0.113 | 0 0 0 | 0 0 0 |
| UUAACA | 0.0272 | 0.0882 0.0818 0.0378 | 0.0666 0.121 0.0775 | 0 0.0153 0.0393 |
| UUAAGA | 1.92 | 1.09 1.01 0.983 | 0.400 0.212 0.207 | 0.0322 0.153 0.0197 |
| UUAAUA | 3.84 | 2.98 4.22 3.55 | 0.566 0.484 0.568 | 0.0322 0.122 0.0590 |
| UUACAA | 3.73 | 1.08 1.36 1.19 | 0.100 0.0907 0.491 | 0.0804 0.0917 0.0197 |
| UUACCA | 1.71 | 1.76 1.69 1.38 | 0.466 0.0907 0 | 0.0161 0 0.0197 |
| UUACCC | 0.0272 | 0 0 0 | 0 0 0 | 0 0 0 |
| UUACGA | 3.16 | 1.23 1.06 0.775 | 0.0333 0.454 0.0258 | 0.0322 0.122 0.0197 |
| UUACUA | 7.58 | 11.5 12.0 12.8 | 1.70 0.544 0.0775 | 0.129 0.229 0.295 |
| UUAGAA | 6.44 | 2.57 2.32 2.29 | 0.300 0.393 0.207 | 0.0322 0.0611 0.0984 |
| UUAGCA | 2.99 | 0.970 0.998 1.19 | 0.133 0.121 0.0517 | 0.0482 0.0153 0.0393 |
| UUAGGA | 5.76 | 1.57 1.78 1.32 | 0.267 0.121 0.181 | 0 0.0764 0.0393 |
| UUAGUA | 6.27 | 4.69 4.57 5.54 | 1.43 0.302 0.336 | 0.0322 0.0153 0.0787 |
| UUAUAA | 7.77 | 4.96 5.32 4.03 | 0.766 0.605 1.11 | 0.0965 0.214 0.256 |
| UUAUCA | 2.49 | 4.92 5.79 6.39 | 2.40 1.78 0.698 | 0.772 0.948 0.787 |
| UUAUGA | 4.86 | 4.36 3.94 4.44 | 0.167 0.302 0.0775 | 0.113 0.0306 0.197 |
| UUAUUA | 6.41 | 12.6 11.1 12.3 | 2.87 1.15 0.258 | 0.0965 0.183 0.177 |
| UUCAAA | 3.29 | 1.27 1.49 1.40 | 0 0.151 0.0517 | 0 0.0153 0.0590 |
| UUCAGA | 0.774 | 0.564 0.556 0.624 | 0.0333 0.0907 0.310 | 0 0.0153 0.0197 |

The last 6 entries again:

{"sequence": "UUAUAA", "pool": "7.77", "IR": "4.96 5.32 4.03", "LM": "0.766 0.605 1.11", "Sys": "0.0965 0.214 0.256"}
{"sequence": "UUAUCA", "pool": "2.49", "IR": "4.92 5.79 6.39", "LM": "2.40 1.78 0.698", "Sys": "0.772 0.948 0.787"}
{"sequence": "UUAUGA", "pool": "4.86", "IR": "4.36 3.94 4.44", "LM": "0.167 0.302 0.0775", "Sys": "0.113 0.0306 0.197"}
{"sequence": "UUAUUA", "pool": "6.41", "IR": "12.6 11.1 12.3", "LM": "2.87 1.15 0.258", "Sys": "0.0965 0.183 0.177"}
{"sequence": "UUCAAA", "pool": "3.29", "IR": "1.27 1.49 1.40", "LM": "0 0.151 0.0517", "Sys": "0 0.0153 0.0590"}
{"sequence": "UUCAGA", "pool": "0.774", "IR": "0.564 0.556 0.624", "LM": "0.0333 0.0907 0.310", "Sys": "0 0.0153 0.0197"}